Anti-infective test results gathered from many reports (values: NIAID ChemDB through PubChem).

Common to all: tests in culture; species: Mycobacterium tuberculosis

Rows are shuffled and stem from different studies. MIC bound: limit read from a one-dose screen. Inhibition is in % at the dose shown (toxicity tests: loss of growth or viability). An empty or dashed field is not shown.

SMILES | strain or isolate | measure | dose | read by | result
COc1cc(OC)c2ssc3c(OC)cc(OC)c4ssc1c2-c43 | H37Rv | inhibition | 12.5 µg/mL | BACTEC | 0%
CCCCC(CC)CN1CN(CC(CC)CCCC)CC(C)(NCCNCC(C)c2ccccc2)C1 |  | MIC |  |  | 6.25 µM
CN(C)S(=O)(=O)c1ccc2c(c1)N(CCCN1CCN(S(C)(=O)=O)CC1)c1ccccc1S2 | H37Rv | MIC bound |  | BACTEC | >12.5 µg/mL
CCCCC(CC)CN1CN(CC(CC)CCCC)CC(C)(NCCNCCC(c2ccccc2)c2ccccc2)C1 |  | MIC |  |  | 12.5 µM
CCN(CC)CCCNc1ccnc(N)n1.Cl | H37Rv | MIC |  |  | >100 µg/mL
COc1ccc(CNCCNCCc2ccc(Cl)cc2Cl)c(OC)c1 |  | MIC |  |  | 50 µM
C[N+](C)(C)CC(=O)N/N=C/c1cccc2ccccc12.[Cl-] | H37Rv | inhibition | 12.5 µg/mL | BACTEC | -1%
CC(C)c1ccc2c(c1)CC[C@H]1[C@](C)(CNCCNC3CCC3)CCC[C@]21C |  | MIC |  |  | 50 µM
CC(C)=CCC/C(C)=C/CNCCNC(C)c1cccc2ccccc12 |  | MIC |  |  | 25 µM
N=C(N)SCc1cccc2ccccc12 | H37Rv | MIC |  |  | >100 µg/mL
c1ccc(CCCNCCNCC23CC4CC(CC(C4)C2)C3)cc1 |  | MIC |  |  | 25 µM
CN(C)CCOC1=Nc2ccccc2O/C1=C\c1ccccc1 | H37Rv | inhibition | 12.5 µg/mL | BACTEC | 28%
CCCCCC(C)NCCNCCc1ccc(Cl)cc1Cl |  | MIC |  |  | 25 µM
O=[N+]([O-])c1ccc(N=Nc2c(Cl)c(O)c3ccccc3c2O)nc1 | PZA-R | MIC |  |  | >12.5 µg/mL
COc1cc(-c2ccc(N)c(OC)c2)ccc1N | H37Rv | MIC |  |  | 100 µg/mL
CC(C)=CCC/C(C)=C/CNCCNCCc1cccs1 |  | MIC |  |  | 50 µM
CCCCC(CC)CN1CN(CC(CC)CCCC)CC(C)(NCCN[C@H](CO)CC(C)C)C1 |  | MIC |  |  | 25 µM
COc1ccc2[nH]cc(CCNCCNCc3cccc(C)c3)c2c1 |  | MIC |  |  | 50 µM
CO[C@H]1/C=C/O[C@@]2(C)Oc3c(C)c(O)c4c(O)c(c5c(c4c3C2=O)NC2(CCN(CC(C)C)CC2)N=5)=NC(=O)/C(C)=C\C=C\[C@H](C)[C@H](O)[C@@H](C)[C@@H](O)[C@@H](C)[C@H](OC(C)=O)[C@@H]1C | 2230 (rifampin-resistant) | MBC |  |  | 0.8 µg/mL
Nc1c(C2CCCCC2)c(=O)on1C(=O)c1ccccc1 | H37Rv | MIC bound |  | resazurin | >6.25 µg/mL
Nc1cc2oc3ccccc3c2cc1N | H37Rv | MIC |  |  | 25 µg/mL
CN(CCO)/N=N/c1nc[nH]c1C(N)=O | H37Rv | MIC |  | BACTEC | ≥12.5 µg/mL
CC(C)c1ccc2c(c1)CC[C@H]1[C@](C)(CNCCNCCCc3ccccc3)CCC[C@]21C |  | MIC |  |  | 25 µM
CC(=O)Nc1ccc(S(C)(=O)=O)cc1 | H37Rv | MIC |  |  | >100 µg/mL
CCOC(=O)c1c2c(n3ccccc13)C(=O)c1ccccc1C2=O | H37Rv | MIC bound |  | resazurin | <6.25 µg/mL
Oc1ccc2c(oc3ccccc32)c1O | H37Rv | MIC |  |  | 25 µg/mL
CCOc1ccccc1CNCCNCc1ccccc1Cl |  | MIC |  |  | 50 µM
CCN(CC)c1ccc(NC(C)=O)cc1 | H37Rv | MIC |  |  | >100 µg/mL
C[C@@H](O)[C@H](NC(=O)OCc1ccccc1)C(=O)N[C@@H](CO)C(=O)NN | H37Rv | MIC |  | BACTEC | ≥12.8 µg/mL
C1CC[N+]2(CC1)CCCCC2.[Br-] | H37Rv | MIC |  |  | >100 µg/mL
COC1=CC(=O)C(C)=CC1=O | H37Rv | MIC bound |  | BACTEC | ≤128 µg/mL
CCCCCCCc1ccccn1 | H37Rv | MIC |  |  | 100 µg/mL
CO[C@H]1/C=C/O[C@@]2(C)Oc3c(C)c(O)c4c(=O)c(c5oc6cc(N7CCN(C(C)C)CC7)cc(=O)c6nc5c4c3=C2O)NC(=O)/C(C)=C\C=C\[C@H](C)[C@H](O)[C@@H](C)[C@@H](O)[C@@H](C)[C@H](OC(C)=O)[C@@H]1C | 2912 (rifampin-sensitive) | MBC |  |  | 0.025 µg/mL
Nc1cccc(C(=O)Nc2ccc(NC(=O)CC(=O)c3ccccc3)cc2)c1 | H37Rv | MIC |  |  | >100 µg/mL
NNC(=O)/C(NC(=O)c1ccccc1)=C(\N)c1ccc(Cl)cc1 | H37Rv | MIC bound |  | BACTEC | >12.5 µg/mL
COC(=O)/C(O)=C(\O)C(=O)OC | H37Rv | MIC |  |  | >100 µg/mL
O=c1[nH]c2ccc(Cl)cc2c(=O)o1 | H37Rv | MIC bound |  | resazurin | >6.25 µg/mL
Nc1cc(O)cc2cccnc12 | H37Rv | MIC |  |  | 12.5 µg/mL
O=C(CC(=O)C(F)(F)F)c1csc2ccccc12 | H37Rv | MIC bound |  |  | >6.25 µg/mL
O=S(=O)(O)c1ccc(O)c2c(S(=O)(=O)O)cccc12 | H37Rv | MIC |  |  | >100 µg/mL
CCCCC(CC)CN1CN(CC(CC)CCCC)CC(C)(NCCNCc2cccc(OC)c2OC)C1 |  | MIC |  |  | 25 µM
O=C(Nc1ccc(Cl)cc1)Nc1nnc2nc(C(c3nc4nnc(NC(=O)Nc5ccc(Cl)cc5)n4[nH]c3=O)C3CCCC3=O)c(=O)[nH]n12 | H37Rv | MIC bound |  | BACTEC | >12.5 µg/mL
CC(=O)SCC(=O)Nc1ccccc1O | H37Rv | MIC |  |  | 100 µg/mL
C/C(=C\C(=O)Nc1ccccc1)Nc1c(C)n(C)n(-c2ccccc2)c1=O | H37Rv | inhibition | 12.8 µg/mL | BACTEC | 10%
CSC(=N)N.O=S(=O)(O)O | H37Rv | MIC |  |  | >100 µg/mL

The first 5 rows once more:

SMILES	strain or isolate	measure	dose	read by	result
COc1cc(OC)c2ssc3c(OC)cc(OC)c4ssc1c2-c43	H37Rv	inhibition	12.5 µg/mL	BACTEC	0%
CCCCC(CC)CN1CN(CC(CC)CCCC)CC(C)(NCCNCC(C)c2ccccc2)C1		MIC			6.25 µM
CN(C)S(=O)(=O)c1ccc2c(c1)N(CCCN1CCN(S(C)(=O)=O)CC1)c1ccccc1S2	H37Rv	MIC bound		BACTEC	>12.5 µg/mL
CCCCC(CC)CN1CN(CC(CC)CCCC)CC(C)(NCCNCCC(c2ccccc2)c2ccccc2)C1		MIC			12.5 µM
CCN(CC)CCCNc1ccnc(N)n1.Cl	H37Rv	MIC			>100 µg/mL